One sequence from article PMC9387928 can be followed below.

For at least one entry, the source does not settle the construct or the ends of the probe. The comparison behind a weaker result is the experiment's own reference, which may not be listed here. Protein sequences can lack the tags named with them.

This data set concerns the target T1, ZccR (MerR-type regulator) (Streptococcus mutans UA159) (UniProt Q8DRZ5).
T1 sequence (looked up): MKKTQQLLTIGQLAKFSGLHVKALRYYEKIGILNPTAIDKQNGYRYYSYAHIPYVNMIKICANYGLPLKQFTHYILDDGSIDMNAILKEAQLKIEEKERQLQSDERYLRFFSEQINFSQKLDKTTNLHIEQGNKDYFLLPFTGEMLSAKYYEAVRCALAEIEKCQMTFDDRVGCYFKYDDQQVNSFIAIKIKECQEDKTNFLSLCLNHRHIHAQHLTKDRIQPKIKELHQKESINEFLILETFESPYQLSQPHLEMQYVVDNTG
In words: EMSA. Conditions: 3 mM TPEN (Zn chelator), complex formation inhibited; 10 mM Tris, 50 mM KCl, 1 ug poly dI-dC, 1 mM DTT, 5% glycerol, pH 7.5; 20 fmol probe in 20 ul; 6% native PAGE at 4 C; binding temperature not stated; recombinant protein; residues 1-264; protein details: His-tag (pET30c); probe letters rebuilt from the primers and the genome.

As for “CACAAATAGCTTGACCTTCCCTTTAAGGTATAGTTTATAGTTAAACTATAACAAGGTTTGCTAAAAAATGCAATGATTTCTGTATTGGAAAGGAGCCAATCATGTCTAAAGGTGATAAACAAAAGAAAAGGCTTCAAAAAATGACTTGGCTTTCAATATG (double strand) [zccE-zccR intergenic region (IGR), 160 bp]”, the binding result is on record as “binds more weakly”.
